Data on three molecules can be found in patent US20210252150A1 (VANDERBILT UNIVERSITY, published 2021).

Where a chain is given by its changes, count along the chain named. Names may count otherwise.

Test [1] deals with HA of A/Hong Kong/1/1968 (H3N2) (influenza A virus (H3N2), UniProt Q91MA7 17-530).
Test [2] deals with HA of A/Singapore/1/1957 (H2) (influenza A virus (H2), UniProt Q67333 16-525).

B1: rFluA-20 heavy chain mutant D98A (antibody, V domains shown)
VH: QVQLQESGPGLVKPSETLSLTCSVSGVSVTSDIYYWTWIRQPPGKGLEWIGYIFYNGDTNYNPSLKSRVTMSIDTSKNEFSLRLTSVTAADTAVYFCARGTEALGYCSSGSCPNHWGQGTLVTVSS
VL: DIQMTQSPSSLSASIGDRVTITCRPSQNIRSFLNWFQHKPGKAPKLLIYAASNLQSGVPSRFSGSGSGTEFTLTIRSLQPEDFATYYCQQSYNTPPTFGQGTKVEIK
For B1, the binding result in test [1] and in test [2] was “no binding (tested: 10 µg/mL)” in each case.

B2: rFluA-20 light chain mutant Q55A (antibody, V domains shown)
VH: B1 VH with A103D
VL: B1 VL with Q55A
notes: recombinant IgG
For B2, in test [2], the binding result is “no binding (tested: 10 µg/mL)”.

B3: rFluA-20 light chain mutant Y49A (antibody, V domains shown)
VH: B1 VH with A103D
VL: B1 VL with Y49A
notes: recombinant IgG
Consider B3, for which, in test [2], the binding result is reported as “no binding (tested: 10 µg/mL)”.
